Anti-infective test results gathered from many reports (values: NIAID ChemDB through PubChem).

Common to all: growth or infection tests; organism: Poliovirus; measure: inhibition

Rows are shuffled and stem from different studies.

compound,strain,cells,dose,value
O=c1c(O)c(-c2ccc(Cl)cc2)oc2ccccc12,TYPE 2,HeLa,6.25 µM,17%
CC(O)c1ccc2c(c1)Cc1ccccc1O2,TYPE 3,BSC-1,10 µg/mL,100%
CC12CC[C@H](OS(=O)(=O)O)CC1=CCC1C2CCC2(C)C(C(=O)COS(=O)(=O)O)CCC12,TYPE 3,VERO,40 µg/mL,0%
Clc1ccc2c(c1)CC(c1ccccc1)CO2,IB (TYPE 2),HEP-2,10 µM,19%
COc1cc(/C=C/C(=O)Oc2c(-c3ccc(Cl)c(Cl)c3)oc3ccccc3c2=O)ccc1OC(C)=O,TYPE 2,HeLa,0.39 µM,10%
CCCCCCCCCCCCCCCCCCCCCCO,-,VERO,5 µg/mL,0%
CC(C)C/C=C/[C@@H](COS(=O)(=O)O)[C@H]1CC[C@H]2[C@@H]3CC[C@@H]4[C@H](O)[C@H](OS(=O)(=O)O)CC[C@]4(C)[C@H]3[C@@H](O)C[C@]12C,SABIN (TYPE 3),VERO,5 µg/mL,15%
CC(O)c1ccc2c(c1)Sc1ccccc1O2,TYPE 3,BSC-1,0.4 µg/mL,85%
CC12CCC3C(C[C@H](OS(=O)(=O)O)[C@H]4C[C@@H](OS(=O)(=O)O)CCC34C)C1CCC2C(=O)CO,TYPE 3,VERO,80 µg/mL,15.7%
O=C(/C=C/c1ccc(O)c(O)c1)Oc1c(-c2ccc(Cl)c(Cl)c2)oc2ccccc2c1=O,TYPE 2,HeLa,6.25 µM,29%
N=C(N)N,-,HeLa,3000 µM,>99%
CC(=O)c1ccc2c(c1)S(=O)(=O)c1ccccc1O2,TYPE 3,BSC-1,10 µg/mL,10%
Clc1ccc(C2COc3ccc(Cl)cc3C2)cc1,SABIN (TYPE 2),HEP-2,10 µM,20%
CCC(=O)C(CCCCCCOc1ccc(OC)cc1Cl)C(=O)CC,MEF (TYPE 2),HeLa,0.14 µM,69%
Clc1ccc(C2=Cc3cc(Cl)ccc3OC2)cc1,IA (TYPE 2),HEP-2,10 µM,55%
CC(C)=CCCC(CO)C1CCC2C3CC=C4C[C@H](O)[C@@H](O)CC4(C)C3CCC12C,TYPE 3,VERO,80 µg/mL,78.1%
Cc1nnc2nc3c(nn12)c1ccccc1n3C,TYPE 1,BSC-1,60 µg/mL,14%
Brc1ccc(C2=Cc3cc(Br)ccc3OC2)cc1,II (TYPE 2),HEP-2,10 µM,10%
CC(=O)c1ccc2c(c1)Sc1ccccc1S2,TYPE 3,BSC-1,0.4 µg/mL,17%
CC(=O)Oc1ccc(/C=C/C(=O)Oc2c(-c3ccc(Cl)c(Cl)c3)oc3ccccc3c2=O)cc1OC(C)=O,TYPE 2,HeLa,0.39 µM,13%
CC(C)(O)c1ccc2c(c1)Sc1ccccc1O2,TYPE 3,BSC-1,10 µg/mL,100%
Clc1ccc(C2CCc3ccccc3O2)c(Cl)c1,IB (TYPE 2),HEP-2,10 µM,10%
CCC(O)c1ccc2c(c1)Sc1ccccc1O2,TYPE 3,BSC-1,0.4 µg/mL,16%
Clc1ccc2c(c1)C=C(c1ccccc1)CO2,II (TYPE 2),HEP-2,10 µM,96%

2 of the rows above, restated:

compound	strain	cells	dose	value
Brc1ccc(C2=Cc3cc(Br)ccc3OC2)cc1	II (TYPE 2)	HEP-2	10 µM	10%
CC(C)=CCCC(CO)C1CCC2C3CC=C4C[C@H](O)[C@@H](O)CC4(C)C3CCC12C	TYPE 3	VERO	80 µg/mL	78.1%

Blank or dashed fields: not listed here. Percent inhibition refers to the dose given; in toxicity tests it is the harm to the cells.